Data: publication PMC5344390
Construct, isoform or probe ends are uncertain for at least one entry.

Target: MrkH-His6 (UniProt G3FT00)
Assay: EMSA
Settings: recombinant protein; probe letters rebuilt from the primers and the genome

ACTGGCCCAGACGATTATTTTCAATTTAATTAATAAGGATATTTCTGCCATCAGAATCGTCGATCTGCTGAATGCGCTCCGCCTTTCCCTGCTGCGCTGCCAGCAGCCGGTGCTAATGGTGAAAAGCGACATTGTCGGGCTGTGCAGAGAGTTGATAAACTTTGACAACGCTATGATTATTAGTGAGAAATCTCCGCTAACTCTTTTTTCATCTATCGTCCAGCGCGCCAAAGGCGTCAGCGAACTGCCGCCGCGAGGATTGCGCAAACAGCTTTCACCACGGGAGTGTCAGATCCTCGAACTGCTCATTGCCAACAATAATAATAAGCGTATTGCCGCCCTGCTCGGCATTGCTCATAAAACGGTTCATAGCCACCGCATCCATATCATGCAAAAACTGGGTATTGATAACTCCCGCACTATGAATCAGCGTATTGCCGCTCTCCATCAATGCTAAATGTTCTCCCGGTAAATCAGTAGCGGATAAAGCGTACTTATTCGCTGTTGATTTACATTTCCCGCCATTCCCATTAATCATCAGGTAGCCTATAATTAATGTATCCTCTGCCTATTGTCTGACTAACCTCGTGAAGAGGGATAATGAACACTAAAATATTCGAAGACAACATTTTA (double strand) [mrkJ regulatory region (wt)]
binding result: binds

AGGCGCAGGAGTTGAACGAGGTCGCGGCTTCGCTTGAGGCGACGCCGATGCAGGTCGCCCTCGCCTGGCTGCTCCAGCGAGCGCCAAATATTCTGCTGATCCCCGGCACCTCCTCCCGCACGCACCTCGCGGAAAATATTGCCGCTGCCGAGCTGGTCCTGCCCGCGGAAGCGCTGCGCACCCTCGATAATATCGCCACCGCCGCGCGCCGCTGACCTGCCAGACAAAATGGAGGGAACCCTATCCCTCCTCAATATTTGCCTGGAAAAACCTCACCGCTACTGGCACTATAGATCCTACAAATGGGGCGTGATCGACGATCGTTCTCTCATTATCCCCGTTAATTAAACTTAAGTTTTTATCCTTCGACCGGTCTCCAGCTTGGAGGCCGTTGTCGTTTTTGTCATGACCAAAATTCGAAACTCTTGATTACAGGAAATACAATATCAAATTCCAAGTTTATACATATCAATCTGGCTGCAAAGATAGTCAATAACATCAAACGCTCATAAAAACATCTGATTAACCCAATCAGAATGTTGCTATTGCTATAAGAAAAATCAAACGCCTCACGACAACTATTTACAAGGGATGCATATGACAGAGGGAACGATAAAGACC (double strand) [mrkH (mrkHI) regulatory region]
binding result: binds

ATGGCGGTTTGATGGCGTAAACATGATCGTTTATCTATTTTTTAGTTTAAAAACAATGGATTAATGATTTGTTTCTGAAAGGGGGGATCACATGGGCTGCCCTTGTTCAGGGAGAGGAATGCGCCTCATTCATGCTTTCACCATTCGTTGTGTGAATGGTTTGGTGCTGTTTTCACCACCGCAAAGGCAGATTCAGACTTATCGCGATGGCCTTCCGAGGGCTTTTTCTGCATGCTGTTGCGGTCACTTTCTCTCGCTCTGGCGTTAGGCTTGCTGCGCTGTAAACAACCACCCTCGCGTTTTCATCTATCAATGGCTGTTTATTAATAGTCGATGGTTATCTGTTATATAACTTAATGAAACGTGAACAAATGTATATTTGTCGGCGAATAAATAGCATTCTTTGACGCCGATAGCACCAGCGAACTTATATTTTTAGGTTCGTTACCTGACGCCTTAAATATTGCGGCTCCCGGTCAGTCGAAGATTCTATTAGCAGTGGCATAAATCAGCATCGCCTGATGTTTCTGGTTCTATGCGAATTCACAGTGTGCTCATTGATTCGTAATTCACTCTGACAAGGAAATGGCAATGAAAAAGGTTCTTCTCTCTGCAGCA (double strand) [mrkA regulatory region]
binding result: binds
